Compound potency records, mixed from different reports. Data source: NIAID ChemDB in PubChem.

All rows: whole-cell or culture tests; agent: Candida albicans

MIC50, MIC90 and the like: level of inhibition, or share of isolates inhibited. Two numbers with a dash give a range or band. ECn is the concentration giving n% inhibition of infection, replication or growth. Lines come from different laboratories, so protocols vary. An empty or dashed field is not shown.

SMILES,read-out,setting,method,strain or isolate,result
CCCCCOc1ccc(-c2ccc(-c3ccc(C(=O)N[C@H]4CCCNC(=O)[C@@H]5C[C@H](N)CN5C(=O)[C@H](CCCCN)NC(=O)[C@H](CCc5ccc(O)cc5)NC(=O)[C@@H]5C[C@@H](O)CN5C(=O)[C@H]([C@@H](C)O)NC4=O)cc3)cc2)cc1,MIC,,,ATCC 10231,0.78 µg/mL
CCCCOc1ccc(O)c(C(=O)NN)c1,MIC,,,Clinical isolates,125–250 µg/mL
CCCCCCCCCOc1ccc(N2CCN(c3ccc(C(=O)N[C@H]4CCCNC(=O)[C@@H]5C[C@H](N)CN5C(=O)[C@H]([C@@H](C)O)NC(=O)[C@H](CCc5ccc(O)cc5)NC(=O)[C@@H]5C[C@@H](O)CN5C(=O)[C@H]([C@@H](C)O)NC4=O)cc3)CC2)cc1,MIC,,,ATCC 38247,0.2 µg/mL
CC[N+](C)(CC)CCCC(C)CCCC(C)CCCCC(C)CCCC(C)CCC[N+](C)(CC)CC,MIC,,,S124,3.12 µg/mL
Nc1[nH]c(=O)ncc1F,MIC,,,2726,0.5 µg/mL
COC(=O)[C@H]1[C@@H]2C[C@@H](O[C@@H]3O[C@H](C)[C@@H](O)[C@H](N)[C@@H]3O)/C=C/C=C/C=C/C=C/C=C/C=C/C=C/[C@H](C)[C@@H](O)[C@H](C)[C@H](C)OC(=O)C[C@H](O)C[C@H](O)[C@@H](O)CC[C@H](O)C[C@H](O)C[C@](O)(C[C@@H]1O)O2,EC90,pH 5,broth dilution,15 isolates,4 µg/mL
CC(C)CCCCCCNC1NCCC2c3ccccc3CCN12,MIC80,,,NFI0124,4 µg/mL
CCCCOc1ccccc1N1CCN(CCc2nnnn2C(C)C(O)(Cn2cncn2)c2ccc(F)cc2F)CC1,MIC,,,V-01-191A-261 (resistant),1 µg/mL
O=C1OC(c2ccc(Oc3ccccc3)cc2)=C/C1=C\c1ccccc1,MIC,,,,>100 µg/mL
O=C(Nc1nc2ccc(NC(=O)[C@@H]3CCC[C@H](NCc4ccc5ccccc5c4)C3)cc2s1)C1CCCC1,MIC,,,IFM 47596 (AD),3.13 µM
O=C(CCn1ccnc1)c1ccc(Cl)cc1,MIC,,broth dilution,RTCC 1003,>64 µg/mL
CCn1nc(-c2ccccc2)n(NC)c1=O,MIC,,,ATCC16231,>250 µg/mL
COc1ccccc1N1CCN(CCc2nnnn2[C@@H](C)[C@](O)(Cn2cncn2)c2ccc(F)cc2F)CC1,MIC,,,,8 µg/mL
C=CCc1ccc(OC)c(OC)c1,MIC90,,turbidity,3078,345 µg/mL
CCSc1ssc(=S)c1C,MIC,,,ATCC 10231,250 µg/mL
O=C1/C(=C/c2ccc(Cl)cc2)C=C(c2ccc(Oc3ccccc3)cc2)N1Cc1ccccc1,MIC,,,,>100 µg/mL
CCCCCOc1ccc(-c2ccc(-c3ccc(C(=O)N[C@H]4CCCNC(=O)[C@@H]5C[C@H](N)CN5C(=O)[C@H](CCCN)NC(=O)[C@H](CCc5ccc(O)cc5)NC(=O)[C@@H]5C[C@@H](O)CN5C(=O)[C@H]([C@@H](C)O)NC4=O)cc3)cc2)cc1,MIC,,,ATCC 10231,0.39 µg/mL
C=C(CCCCCNC1NCCC2c3ccccc3CCN12)C(C)C,MIC,,,NFI2103,16 µg/mL
CS/C(N)=N/NC(=O)c1ccc([N+](=O)[O-])cc1,MIC,,,,>100 µg/mL
N=C(N)c1ccc(OCCCCCCOc2ccc(C(=N)N)cc2)cc1,MFC,,,A39,12.5 µg/mL
CC[C@@H]([C@H](C)O)n1ncn(-c2ccc(N3CCN(c4ccc(OC[C@@H]5CO[C@@](Cn6cncn6)(c6ccc(F)cc6F)C5)cc4)CC3)cc2)c1=O,EC90,pH 4,broth dilution,10 isolates,16 µg/mL
CCCCCOc1ccc(-c2ccc(-c3ccc(C(=O)N[C@H]4CCCNC(=O)[C@@H]5C[C@H](N)CN5C(=O)[C@H](CCCN=C(N)N)NC(=O)[C@H](CCc5ccc(O)cc5)NC(=O)[C@@H]5C[C@@H](O)CN5C(=O)[C@H]([C@@H](C)O)NC4=O)cc3)cc2)cc1,MIC,,,ATCC 10231,0.39 µg/mL
CCCCCCCCCCCCCCCC(=O)N[C@H]1C[C@@H](O)[C@@H](O)NC(=O)[C@@H]2[C@@H](O)[C@@H](C)CN2C(=O)[C@H]([C@@H](C)O)NC(=O)[C@H]([C@H](O)[C@@H](O)c2ccc(O)cc2)NC(=O)[C@@H]2C[C@@H](O)CN2C(=O)[C@H]([C@@H](C)O)NC1=O,MIC50,,,FP582,0.06 µg/mL
O=c1[nH]nc(-c2ccccc2)n1-c1cccnc1,MIC,,,ATCC16231,>250 µg/mL
CCCCCCCCCCCCCCCC(=O)NC1CCC(O)NC(=O)C2C(O)C(C)CN2C(=O)C(C(O)CC(N)=O)NC(=O)C(C(O)Cc2ccc(O)c(OS(=O)(=O)O)c2)NC(=O)C2CC(O)CN2C(=O)C(C(C)O)NC1=O,MIC50,,,FP578,0.008 µg/mL
O=C(CCn1ccnc1)c1ccc2ccccc2c1,MIC,,broth dilution,RTCC 1003,>64 µg/mL
CCSc1cc(=S)ss1,MIC,,,ATCC 10231,50 µg/mL
C=CCS/C(N)=N/NC(=O)c1ccc(Cl)cc1Cl,MIC,,,,>100 µg/mL
N=C(N)c1ccc(OCCCC(O)COc2ccc(C(=N)N)cc2)cc1,MFC,,,A39,12.5 µg/mL
C[C@H](n1nnnc1CCN1CCN(c2ccc(F)cc2)CC1)[C@](O)(Cn1cncn1)c1ccc(F)cc1F,MIC,,,V-01-191A-261 (resistant),2 µg/mL
CN(C)CCN(C)C(=O)c1ccc(-c2ccc(-c3ccc(C(=O)N(C)CCN(C)C)cc3)o2)cc1,MIC80,,,A39,>100 µg/mL
CCc1n[nH]c(=O)n1CC,MIC,,,ATCC16231,>250 µg/mL
COC(/C=C/c1ccccc1)=C1/C(=O)C=C(C)C1=O,MIC50,,,Isolate 5 azole-resistant,0.4 µg/mL
Clc1ccccc1C(c1ccccc1)(c1ccccc1)n1ccnc1,MIC,pH 6,broth dilution,10 isolates,0.03 µg/mL
COc1ccc2c(c1)CCN1C(NCCCCCCC(C)C)NCCC21,MIC80,,,NFI2103,4 µg/mL
CCCCCOc1ccc(-c2ccc(-c3ccc(C(=O)N[C@H]4CCCNC(=O)[C@@H]5C[C@H](N)CN5C(=O)[C@H](CO)NC(=O)[C@H](CCc5ccc(O)cc5)NC(=O)[C@@H]5C[C@@H](O)CN5C(=O)[C@H]([C@@H](C)O)NC4=O)cc3)cc2)cc1,MIC,,,ATCC 38247,0.2 µg/mL
CCC(C)CC(C)CCCCCCCCC(=O)N[C@H]1C[C@@H](O)[C@H](NCCN)NC(=O)[C@@H]2[C@@H](O)CCN2C(=O)[C@H]([C@H](O)CCN)NC(=O)[C@H]([C@H](O)[C@@H](O)c2ccc(O)cc2)NC(=O)[C@@H]2C[C@@H](O)CN2C(=O)[C@H]([C@@H](C)O)NC1=O,MIC,,,90028,0.03 µg/mL
c1cc2nc(CCCCc3nc4ccc(C5=NCCN5)cc4[nH]3)[nH]c2cc1C1=NCCN1,MIC80,,,A39,>100 µg/mL
CCCSc1cc(=S)ss1,MIC,,,Clinical isolate 00-604,4 µg/mL
NNC(=O)c1ccc(OCc2ccccc2)cc1O,MIC,,,Clinical isolates,125–250 µg/mL
COc1ccccc1N1CCN(CCc2nnn(CC(O)(Cn3cncn3)c3ccc(F)cc3F)n2)CC1,MIC,,,,8 µg/mL
CCCCCCCCNC1NCCC2c3ccccc3CCN12,MIC80,,,NFI0124,16 µg/mL
CNn1c(-c2ccccc2)nn(Cc2ccccc2)c1=O,MIC,,,ATCC16231,>250 µg/mL
CCS(=O)(=O)C(F)(F)C(O)(Cn1cncn1)c1ccc(F)cc1F,MIC50,,,55 strains,0.063 µg/mL
CCC(C)n1ncn(-c2ccc(N3CCN(c4ccc(OC[C@H]5CO[C@](Cn6cncn6)(c6ccc(Cl)cc6Cl)O5)cc4)CC3)cc2)c1=O,MIC90,,,30 isolates,1 µg/mL
CC(C)=CCC/C(C)=C/CCC(C)=CCC/C=C(\C)CCC=C(C)CCCN(C)C,MIC,,,S9,25 µg/mL
Clc1ccc(C(Cn2ccnc2)OCc2csc3c(Cl)cccc23)c(Cl)c1,MIC50,24 h,visual reading,63 isolates,0.5 µg/mL
CCC(C)CC(C)CCCCCCCCC(=O)N[C@H]1C[C@@H](O)[C@H](NCCN)NC(=O)[C@@H]2[C@@H](O)CCN2C(=O)[C@H]([C@H](O)CCN)NC(=O)[C@H]([C@H](O)[C@@H](O)c2ccc(O)cc2)NC(=O)[C@@H]2C[C@@H](O)CN2C(=O)[C@H]([C@@H](C)O)NC1=O,MIC,pH 5,broth dilution,10 isolates,0.03 µg/mL
CCN(CC)CCCC(C)=CCC/C(C)=C/CCC=C(C)CC/C=C(\C)CCCN(CC)CC,MIC,,,S124,25 µg/mL
C[C@H](n1nnc(CCN2CCN(c3ccc([N+](=O)[O-])cc3)CC2)n1)[C@](O)(Cn1cncn1)c1ccc(F)cc1F,MIC,,,,4 µg/mL
CNn1c(-c2ccccc2)nn(C)c1=O,MIC,,,ATCC16231,>250 µg/mL
CCN(CC)CCCC(C)CCCC(C)CCCCC(C)CCCC(C)CCCN(CC)CC,MIC,,,S124,100 µg/mL
O=C1NC(c2ccc(Oc3ccccc3)cc2)=C/C1=C\c1cccc([N+](=O)[O-])c1,MIC,,,,10 µg/mL
CC(C)CCCC(C)CCCC(C)CCCCC(C)CCCC(C)CCC[N+](C)(C)[O-],MIC,,,S9,>200 µg/mL
NC(=S)NNC(=O)c1ccccc1,MIC,,,,>100 µg/mL
Cc1ccc(C)n1-n1c(-c2ccccc2)n[nH]c1=O,MIC,,,ATCC16231,>250 µg/mL
CS/C(N)=N/NC(=O)c1ccc(C)cc1,MIC,,,,>100 µg/mL
S=c1cc(Sc2ccccc2)ss1,MIC,,,Clinical isolate 00-622,<0.13 µg/mL
COc1cc(C(=O)N/N=C(\N)SCc2cccc(Cl)c2)cc(OC)c1OC,MIC,,,,>100 µg/mL
O=C(CCn1ccnc1)c1cccc(C(O)c2ccc(Cl)c(Cl)c2)c1,MIC,,broth dilution,RTCC1024,64 µg/mL
CCCOc1cc(O)cc(C(=O)O)c1,MIC,,,Clinical isolates,125–250 µg/mL
Cc1ccc(C(O)c2cccc(C(O)CCn3ccnc3)c2)cc1,MIC,,broth dilution,RTCC1024,>64 µg/mL
O=C1OC(c2ccc(Oc3ccccc3)cc2)=C/C1=C\c1cccc([N+](=O)[O-])c1,MIC,,,,25 µg/mL
CC(=O)OCCn1c(Cc2ccc(Cl)cc2)nn(C(C)=O)c1=O,MIC,,,ATCC16231,>250 µg/mL
COc1cc(NC(C)CCCN)c2nc(C(C)(C)C)ccc2c1Oc1cccc(C(F)(F)F)c1,EC50,,,,6.5 µg/mL

The first 5 rows once more:

SMILES | read-out | setting | method | strain or isolate | result
CCCCCOc1ccc(-c2ccc(-c3ccc(C(=O)N[C@H]4CCCNC(=O)[C@@H]5C[C@H](N)CN5C(=O)[C@H](CCCCN)NC(=O)[C@H](CCc5ccc(O)cc5)NC(=O)[C@@H]5C[C@@H](O)CN5C(=O)[C@H]([C@@H](C)O)NC4=O)cc3)cc2)cc1 | MIC |  |  | ATCC 10231 | 0.78 µg/mL
CCCCOc1ccc(O)c(C(=O)NN)c1 | MIC |  |  | Clinical isolates | 125–250 µg/mL
CCCCCCCCCOc1ccc(N2CCN(c3ccc(C(=O)N[C@H]4CCCNC(=O)[C@@H]5C[C@H](N)CN5C(=O)[C@H]([C@@H](C)O)NC(=O)[C@H](CCc5ccc(O)cc5)NC(=O)[C@@H]5C[C@@H](O)CN5C(=O)[C@H]([C@@H](C)O)NC4=O)cc3)CC2)cc1 | MIC |  |  | ATCC 38247 | 0.2 µg/mL
CC[N+](C)(CC)CCCC(C)CCCC(C)CCCCC(C)CCCC(C)CCC[N+](C)(CC)CC | MIC |  |  | S124 | 3.12 µg/mL
Nc1[nH]c(=O)ncc1F | MIC |  |  | 2726 | 0.5 µg/mL